Experiment [1] addresses SARS-CoV-2 Omicron BA.1.1 spike protein (SARS-CoV-2) (UniProt P0DTC2).
For experiment [2], the target named is SARS-CoV-2 Omicron BA.2 spike protein (SARS-CoV-2) (UniProt P0DTC2).
Experiment [3] deals with SARS-CoV-2 spike protein, original wildtype strain Wuhan-Hu-1 (SARS-CoV-2) (UniProt P0DTC2).
The target of experiment [4] is SARS-CoV-2 Omicron BA.1 spike protein (SARS-CoV-2) (UniProt P0DTC2).
Experiment [5] has as its target SARS-CoV-2 Omicron BA.1.1 spike protein (SARS-CoV-2) (UniProt P0DTC2). The experiment is described as follows: flow cytometry on cells.
Experiment [6] has as its target SARS-CoV-2 Omicron BA.2 spike protein (SARS-CoV-2) (UniProt P0DTC2). Briefly: flow cytometry on cells. (Flow cytometry measures light scatter and fluorescence of single cells or particles in a stream.)
Experiment [7] deals with SARS-CoV-2 Omicron BA.1 spike protein (SARS-CoV-2) (UniProt P0DTC2). Briefly: flow cytometry on cells.

On to AZ combo (COV2-2196 + COV2-2130), for which, in experiment [1], the IC50 of neutralisation of BA.1.1 pseudovirus, HeLa-hACE2 cells amounted to 3.49 µg/mL and the IC50 of neutralisation of BA.1.1 pseudovirus, Huh7 cells amounted to 1.75 µg/mL. Also, in experiment [2], the IC50 of neutralisation of BA.2 pseudovirus, HeLa-hACE2 cells was 0.026 µg/mL and the IC50 of neutralisation of BA.2 pseudovirus, Huh7 cells turned out to be 0.009 µg/mL. In experiment [3], this substance returned an IC50 of neutralisation of WT pseudovirus, HeLa-hACE2 cells of 0.004 µg/mL and an IC50 of neutralisation of WT pseudovirus, Huh7 cells of 0.005 µg/mL. In addition, in experiment [4], the IC50 of neutralisation of BA.1 pseudovirus, HeLa-hACE2 cells came out at 0.37 µg/mL and the IC50 of neutralisation of BA.1 pseudovirus, Huh7 cells was 0.6 µg/mL. In experiment [5], the fold change of spike binding (nTFI) relative to D614G spike amounted to 1.1 fold. Also, the fold change of spike binding (nTFI) relative to D614G spike in experiment [6] was determined as 1 fold. Moreover, the fold change of spike binding (nTFI) relative to D614G spike in experiment [7] turned out to be 1.2 fold.

CB6 (antibody): in experiment [1], the IC50 of neutralisation of BA.1.1 pseudovirus, HeLa-hACE2 cells was greater than 100 µg/mL and the IC50 of neutralisation of BA.1.1 pseudovirus, Huh7 cells was greater than 100 µg/mL. In experiment [2], this substance displayed an IC50 of neutralisation of BA.2 pseudovirus, HeLa-hACE2 cells greater than 100 µg/mL and an IC50 of neutralisation of BA.2 pseudovirus, Huh7 cells greater than 100 µg/mL. In experiment [3], this substance displayed an IC50 of neutralisation of WT pseudovirus, HeLa-hACE2 cells of 0.037 µg/mL and an IC50 of neutralisation of WT pseudovirus, Huh7 cells of 0.06 µg/mL. In experiment [4], the IC50 of neutralisation of BA.1 pseudovirus, HeLa-hACE2 cells is greater than 100 µg/mL and the IC50 of neutralisation of BA.1 pseudovirus, Huh7 cells was greater than 100 µg/mL. In addition, the fold change of spike binding (nTFI) relative to D614G spike in experiment [5] was less than -200 fold. The fold change of spike binding (nTFI) relative to D614G spike in experiment [6] was less than -200 fold. In addition, the fold change of spike binding (nTFI) relative to D614G spike in experiment [7] was less than -200 fold.

In experiment [1], COV2-2196 (antibody) came in with an IC50 of neutralisation of BA.1.1 pseudovirus, HeLa-hACE2 cells of 19.2 µg/mL and an IC50 of neutralisation of BA.1.1 pseudovirus, Huh7 cells of 10.5 µg/mL. In experiment [2], this substance registered an IC50 of neutralisation of BA.2 pseudovirus, HeLa-hACE2 cells of 17.5 µg/mL and an IC50 of neutralisation of BA.2 pseudovirus, Huh7 cells of 9.09 µg/mL. For the same substance, in experiment [3], the IC50 of neutralisation of WT pseudovirus, HeLa-hACE2 cells amounted to 0.001 µg/mL and the IC50 of neutralisation of WT pseudovirus, Huh7 cells came out at 0.007 µg/mL. In experiment [4], this substance displayed an IC50 of neutralisation of BA.1 pseudovirus, HeLa-hACE2 cells of 2.05 µg/mL and an IC50 of neutralisation of BA.1 pseudovirus, Huh7 cells of 9.98 µg/mL. Also, the fold change of spike binding (nTFI) relative to D614G spike in experiment [5] turned out to be 1.6 fold. In addition, the fold change of spike binding (nTFI) relative to D614G spike in experiment [6] is -1.3 fold. Besides, in experiment [7], the fold change of spike binding (nTFI) relative to D614G spike was 1.5 fold.

In experiment [1], REGN Combo (REGN10933 + REGN10987) registered an IC50 of neutralisation of BA.1.1 pseudovirus, HeLa-hACE2 cells of 13.9 µg/mL and an IC50 of neutralisation of BA.1.1 pseudovirus, Huh7 cells of 3.52 µg/mL. In experiment [2], this substance returned an IC50 of neutralisation of BA.2 pseudovirus, HeLa-hACE2 cells of 0.794 µg/mL and an IC50 of neutralisation of BA.2 pseudovirus, Huh7 cells of 0.264 µg/mL. In experiment [3], this substance registered an IC50 of neutralisation of WT pseudovirus, HeLa-hACE2 cells of 0.003 µg/mL and an IC50 of neutralisation of WT pseudovirus, Huh7 cells of 0.005 µg/mL. For the same substance, in experiment [4], the IC50 of neutralisation of BA.1 pseudovirus, HeLa-hACE2 cells was found to be 3.13 µg/mL and the IC50 of neutralisation of BA.1 pseudovirus, Huh7 cells was 12 µg/mL. In experiment [5], the fold change of spike binding (nTFI) relative to D614G spike is -6.8 fold. The fold change of spike binding (nTFI) relative to D614G spike in experiment [6] is -1.3 fold. Also, in experiment [7], the fold change of spike binding (nTFI) relative to D614G spike is -7 fold.

The record behind these values is publication PMC9247160, “SARS-CoV-2 Omicron Variants Reduce Antibody Neutralization and Acquire Usage of Mouse ACE2” (2022).
